# Potato spindle tuber viroid, loop 6: variant abundance in plants

PSTVd intermediate strain, loop 6: wild type UGACCGCGAG, pool pattern UNNNCGNNNG; upper and lower strand joined, each 5' to 3', the first 5 letters being the upper strand, closing pairs included.

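A pool of all variants was put on leaves of three Nicotiana benthamiana plants. Samples came from the inoculated region at 5 days, the leaf margin at 10 and upper systemic leaves at 12.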

Values are reads per thousand in the sample; higher means more abundant, 0 means not found. Each site shows the three plants. "Pool" is the share in the plasmid pool used as inoculum, on the same scale. The inoculated region was read from the minus strand, the other sites from the plus strand. IR is the inoculated region, LM the leaf margin, Sys the systemic leaves. With 36,220-57,551 reads a sample, very low values are single reads.

UCAGCGUACG (pool 0.288) read IR 0.0521 / 0.0898 / 0.0369; LM 0.0276 / 0 / 0; Sys 0 / 0 / 0. UCCCCGAGCG (pool 0.275) read IR 0.0695 / 0.0719 / 0.148; LM 0 / 0.0504 / 0.0464; Sys 0 / 0 / 0. UGCUCGUGUG (pool 0.275) read IR 0.0869 / 0.0719 / 0.0738; LM 0 / 0 / 0.0232; Sys 0 / 0 / 0. For UUUGCGGCAG (pool 0.235) the result was IR 0.122 / 0.0719 / 0.129; LM 0 / 0 / 0.0232; Sys 0 / 0 / 0. With UUGGCGAAUG (pool 0.484) the assay gave IR 0.139 / 0.0719 / 0.129; LM 0 / 0 / 0.0232; Sys 0 / 0 / 0. For UAGCCGUGUG (pool 0.327) the result was IR 0.174 / 0.108 / 0.221; LM 0.110 / 0.0504 / 0.0464; Sys 0 / 0 / 0.

UUGUCGUGGG (pool 0.327) gave IR 0.0869 / 0.162 / 0.0553; LM 0 / 0 / 0; Sys 0 / 0 / 0. For UCGGCGCCGG (pool 0.248) the result was IR 0.104 / 0.0539 / 0.129; LM 0 / 0 / 0; Sys 0 / 0 / 0. UAAGCGAUCG (pool 0.366) read IR 0.139 / 0.0359 / 0.0369; LM 0 / 0 / 0; Sys 0 / 0 / 0. With UUAACGAAGG (pool 0.131) the assay gave IR 0.0695 / 0.144 / 0.0553; LM 0 / 0 / 0.0232; Sys 0 / 0 / 0. UCGACGGCUG (pool 0.327) read IR 0.0521 / 0.0719 / 0; LM 0.0276 / 0 / 0.0232; Sys 0 / 0 / 0. With UGGGCGCGCG (pool 0.105) the assay gave IR 0.122 / 0.108 / 0.111; LM 0.0276 / 0 / 0; Sys 0 / 0 / 0.

For UACGCGUCGG (pool 0.170) the result was IR 0.122 / 0.126 / 0.0553; LM 0 / 0 / 0; Sys 0 / 0 / 0. UCAUCGGGCG (pool 0.118) read IR 0.817 / 0.880 / 0.479; LM 0.166 / 0.0252 / 0.0696; Sys 0 / 0 / 0. With UAGUCGACGG (pool 0.275) the assay gave IR 0.174 / 0.108 / 0.0553; LM 0 / 0 / 0.0232; Sys 0 / 0 / 0. For UAUCCGUGGG (pool 0.118) the result was IR 0.122 / 0.162 / 0.0369; LM 0.0276 / 0 / 0; Sys 0 / 0 / 0. For UCCUCGUACG (pool 0.209) the result was IR 0.0869 / 0.108 / 0.111; LM 0 / 0 / 0; Sys 0 / 0 / 0. For UGAACGUCCG (pool 0.144) the result was IR 0.226 / 0.126 / 0.111; LM 0 / 0 / 0.0232; Sys 0 / 0 / 0.

UGCCCGGCGG (pool 0.183) read IR 0.156 / 0.108 / 0.129; LM 0 / 0 / 0; Sys 0 / 0 / 0. For UGGUCGCUAG (pool 0.170) the result was IR 0.0695 / 0.0898 / 0.129; LM 0 / 0 / 0.0232; Sys 0 / 0 / 0. GGACCGAGCG (pool 0.0261) read IR 0.0174 / 0 / 0.0184; LM 0 / 0 / 0; Sys 0 / 0 / 0. UGGUCGACAG (pool 0.314) read IR 0.0869 / 0.108 / 0.129; LM 0 / 0 / 0.0232; Sys 0 / 0 / 0. With UUAACGCCUG (pool 0.327) the assay gave IR 0.139 / 0.0539 / 0.0553; LM 0 / 0 / 0; Sys 0 / 0 / 0. With UAGCCGUGAG (pool 0.235) the assay gave IR 0.834 / 0.557 / 0.443; LM 0.110 / 0.0504 / 0.0464; Sys 0 / 0 / 0.

UUUACGGGAG (pool 0.209) gave IR 0.782 / 0.808 / 0.590; LM 0.166 / 0.0757 / 0.0696; Sys 0 / 0 / 0. UCACCGAAGG (pool 0.105) read IR 0.174 / 0.0359 / 0.111; LM 0 / 0 / 0.0232; Sys 0 / 0 / 0. UUAGCGGGUG (pool 0.353) gave IR 0.0348 / 0.0898 / 0.0738; LM 0.0276 / 0 / 0; Sys 0 / 0 / 0.0205. UACUCGUUAG (pool 0.392) read IR 0.209 / 0.0898 / 0.0922; LM 0 / 0 / 0.0232; Sys 0 / 0 / 0. UUAGCGAAGG (pool 0.157) gave IR 0.0869 / 0.0719 / 0.0553; LM 0.0276 / 0 / 0; Sys 0 / 0 / 0. UCGGCGGCUG (pool 0.248) read IR 0.0869 / 0.0539 / 0.0738; LM 0.0276 / 0 / 0; Sys 0 / 0 / 0.

For UGAUCGACAG (pool 0.209) the result was IR 0.191 / 0.162 / 0.148; LM 0 / 0 / 0.0232; Sys 0 / 0 / 0. With UACUCGAGAG (pool 0.327) the assay gave IR 0.139 / 0.126 / 0.0553; LM 0 / 0 / 0.0232; Sys 0 / 0 / 0. UCGCCGCACG (pool 0.248) gave IR 0.0521 / 0.108 / 0.0738; LM 0 / 0 / 0; Sys 0 / 0 / 0.

The first 4 entries again:

sequence	pool	IR	LM	Sys
UCAGCGUACG	0.288	0.0521 / 0.0898 / 0.0369	0.0276 / 0 / 0	0 / 0 / 0
UCCCCGAGCG	0.275	0.0695 / 0.0719 / 0.148	0 / 0.0504 / 0.0464	0 / 0 / 0
UGCUCGUGUG	0.275	0.0869 / 0.0719 / 0.0738	0 / 0 / 0.0232	0 / 0 / 0
UUUGCGGCAG	0.235	0.122 / 0.0719 / 0.129	0 / 0 / 0.0232	0 / 0 / 0

For reference, wild type rose from 20.7 per thousand in the pool to 195, 198, 203 (inoculated region), 629, 591, 734 (leaf margin) and 942, 870, 868 (systemic leaves). The authors trace changes outside the varied positions to PCR and sequencing errors or to mutation in the plant; presence does not show that a variant is infectious alone.

Values reported by Wu et al. 2024 (doi:10.1371/journal.ppat.1012142).